# Measurements reported in PubChem BioAssay (NCATS).
# This is a selection; strong and weak results do not stand in their true shares. Results filed as inconclusive are left out. Active and inactive are the calls of the source. Calls come from the whole dose curve; as a rule, active = well fitted inhibition curve with a large enough effect; inconclusive = small, poorly fitted or top-dose-only effect; inactive = flat fitted curve, though single readings scatter.
# Tested on: CP266
# Test: qHTS profiling for inhibitors of Plasmodium falciparum proliferation (AID 504749);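 note: 0% = DMSO vehicle and full inhibition = artemisinin control; nearly all actives have a fitted effect of over 60% in size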
# Settings: P. falciparum in erythrocytes, SYBR Green DNA, 72 h; at 28.7 µM (top of the series)
# Summary of the method: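 Parasite proliferation within erythrocytes, 72 h exposure. Endpoint: SYBR Green I fluorescence after overnight lysis at room temperature. Controls: 0.29 uM artemisinin, DMSO.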
structure (smiles),measurement,value
CC(C)OP(=O)(F)OC(C)C,"activity, negative = inhibition",inactive: -1.73%
